Anti-infective test results gathered from many reports (values: NIAID ChemDB through PubChem).

Shared fields: growth or infection tests; organism: HIV-1; read-out: EC50

ECn is the concentration giving n% inhibition of infection, replication or growth. Conditions beyond the fields shown may differ between rows.

{"compound": "O=c1ccn2cnc3c(ncn3[C@@H]3O[C@H](CO)[C@@H](O)[C@H]3O)c2n1", "cells": "MT-4", "read by": "RT activity", "strain or isolate": "LAV-1", "result": ">1500 µM"}
{"compound": "C=CCNC(=O)CSc1cnc(Nc2ccc(C#N)cc2)nc1Oc1c(C)cc(C#N)cc1C", "cells": "MT-4", "read by": "MTT", "strain or isolate": "IIIB", "result": "0.0033 µM"}
{"compound": "CC(CO)n1cnc2c(Cl)nc(N)nc21", "cells": "MT-4", "read by": "RT activity", "strain or isolate": "LAV-1", "result": ">100 µM"}
{"compound": "Cc1cc(C)cc(S(=O)(=O)c2c(C(=O)NS(=O)(=O)c3ccc(F)cc3)[nH]c3ccc(Cl)cc23)c1", "cells": "MT-4", "read by": "MTT", "changes": "Y188L", "result": ">121 µM"}
{"compound": "CC(O)Cn1cnc2c(Cl)nc(N)nc21", "cells": "MT-2", "read by": "RT activity", "strain or isolate": "LAV-1", "result": ">100 µM"}
{"compound": "CCc1c(Cc2ccccc2C)n(COCC#Cc2ccccc2)c(=O)[nH]c1=O", "cells": "MT-4", "read by": "MTT", "strain or isolate": "IIIB", "changes": "Y181C", "result": ">26 µM"}
{"compound": "CC(C)C1=C2[C@H]3CC[C@@H]4[C@@]5(C)CC[C@H](OC(=O)[C@H]6C[C@@H](C(=O)O)C6(C)C)C(C)(C)[C@@H]5CC[C@@]4(C)[C@]3(C)CC[C@@]2(CC(=O)NCC(F)(CCN)NC(=O)c2ccc(Cl)cc2)CC1=O", "cells": "MT-2", "read by": "p24 / ELISA", "strain or isolate": "92HT599", "result": "<1 µM"}
{"compound": "Cc1cc(C)n(CCOc2ccc(-c3cnc(C)c([C@H](OC(C)(C)C)C(=O)O)c3N3CCC(C)(C)CC3)nc2)n1", "cells": "MT-2", "read by": "luminescence", "strain or isolate": "NL4-3", "result": "0.0076 µM"}
{"compound": "Cc1cc(C#N)cc(C)c1Oc1nc(Nc2ccc(C#N)cc2)ncc1SCC(=O)NCCN1CCN(C(=O)OC(C)(C)C)CC1", "cells": "MT-4", "read by": "MTT", "changes": "K103N", "result": "0.0303 µM"}
{"compound": "O=c1cc(CCl)nc2c3ncn([C@H]4C[C@H](O)[C@@H](COP(=O)(O)O)O4)c3ncn12", "cells": "MT-4", "read by": "RT activity", "strain or isolate": "LAV-1", "result": ">200 µM"}
{"compound": "CC(=O)OC(c1cccnc1)C(F)(F)c1nc2ccccc2o1", "cells": "CEM + CEM-SS", "read by": "RT activity", "strain or isolate": "LAI", "result": ">100 µM"}
{"compound": "Cc1cc(C#N)cc(C)c1Oc1nc(Nc2ccc(C#N)cc2)ncc1SCC(=O)Nc1ccc(S(C)(=O)=O)cc1", "cells": "MT-4", "read by": "MTT", "changes": "Y181C", "result": "0.093 µM"}
{"compound": "FC(c1cccnc1)C(F)(F)c1nc2ccccc2o1", "cells": "CEM + CEM-SS", "read by": "RT activity", "strain or isolate": "LAI", "result": ">100 µM"}
{"compound": "O=C(/C=C/c1ccc(O)c2c1[C@H](C(=O)O)[C@@H](c1ccc(O)c(O)c1)O2)O[C@H](Cc1ccc(O)c(O)c1)C(=O)O", "cells": "H9", "read by": "p24", "strain or isolate": "MN", "result": "2 µM"}
{"compound": "Cc1cc(Cl)ccc1OCCOc1ccc(-c2cnc(C)c([C@H](OC(C)(C)C)C(=O)O)c2N2CCC(C)(C)CC2)nc1", "cells": "MT-2", "read by": "luminescence", "strain or isolate": "NL4-3", "result": "0.0022 µM"}
{"compound": "Cc1cc(C#N)cc(C)c1Oc1nc(Nc2ccc(C#N)cc2)ncc1SCC(=O)NCC1CCCO1", "cells": "MT-4", "read by": "MTT", "strain or isolate": "IIIB", "result": "0.0076 µM"}
{"compound": "CCc1c(Cc2cc(C)cc(C)c2)n(COCC#Cc2cccc(C=O)c2)c(=O)[nH]c1=O", "cells": "MT-4", "read by": "MTT", "strain or isolate": "IIIB", "changes": "WT", "result": "0.02 µM"}
{"compound": "FC(F)(c1ccc(-c2ccccc2)cc1)C(F)(F)c1nc2ccccc2o1", "cells": "CEM + CEM-SS", "read by": "RT activity", "strain or isolate": "LAI", "result": ">100 µM"}
{"compound": "Cc1cc(C#N)cc(C)c1Oc1nc(Nc2ccc(C#N)cc2)ncc1SCC(=O)NC1CCN(C(=O)OC(C)(C)C)CC1", "cells": "MT-4", "read by": "MTT", "changes": "L100I", "result": "0.0553 µM"}
{"compound": "Cc1ncc(-c2ncc(N)c(NCCOc3ccccc3)n2)c(N2CCC(C)(C)CC2)c1[C@H](OC(C)(C)C)C(=O)O", "cells": "MT-2", "read by": "luminescence", "strain or isolate": "NL4-3", "result": "0.1 µM"}
{"compound": "CCN1CCN(CC(=O)NCC[C@@]23CC[C@]4(C)[C@H](CC[C@@H]5[C@@]6(C)CC[C@H](OC(=O)[C@H]7C[C@@H](C(=O)O)C7(C)C)C(C)(C)[C@@H]6CC[C@]54C)C2=C(C(C)C)C(=O)C3)CC1", "cells": "MT-2", "read by": "p24 / ELISA", "strain or isolate": "92HT599", "result": "<1 µM"}
{"compound": "Cc1cc(C)cc(S(=O)(=O)c2c(C(=O)NS(=O)(=O)c3ccc(F)cc3F)[nH]c3ccc(Cl)cc23)c1", "cells": "MT-4", "read by": "MTT", "strain or isolate": "IIIB", "result": "1.73 µM"}
{"compound": "CC(C)C1=C2[C@H]3CC[C@@H]4[C@@]5(C)CC[C@H](OC(=O)[C@H]6C[C@@H](C(=O)O)C6(C)C)C(C)(C)[C@@H]5CC[C@@]4(C)[C@]3(C)CC[C@@]2(CC(=O)NCC(C)(C)NC(=O)c2ccc(Cl)cc2OC2CCNCC2)CC1=O", "cells": "MT-2", "read by": "p24 / ELISA", "strain or isolate": "92HT599", "result": "<1 µM"}
{"compound": "Nc1nc2c(ncn2CCOCP(=O)(O)O)c(=O)[nH]1", "read by": "p24", "result": "0.08 µM"}
{"compound": "CCc1c(Cc2ccccc2C)n(COCC#Cc2ccc(N)cc2)c(=O)[nH]c1=O", "cells": "MT-4", "read by": "MTT", "strain or isolate": "IIIB", "changes": "Y181C", "result": ">39 µM"}
{"compound": "Cc1ncc(-c2ccc(N(C)CCOc3ccccc3)cn2)c(N2CCC(C)(C)CC2)c1[C@H](OC(C)(C)C)C(=O)O", "cells": "MT-2", "read by": "luminescence", "strain or isolate": "NL4-3", "result": "0.0008 µM"}
{"compound": "Cc1cc(C#N)cc(C)c1Oc1nc(Nc2ccc(C#N)cc2)ncc1SCC(=O)NC1CC1", "cells": "MT-4", "read by": "MTT", "changes": "K103N", "result": "0.0022 µM"}
{"compound": "Cc1cc(C)cc(S(=O)(=O)c2c(C(=O)NS(=O)(=O)C(F)(F)F)[nH]c3ccc(Cl)cc23)c1", "cells": "MT-4", "read by": "MTT", "strain or isolate": "RES056", "result": ">253 µM"}
{"compound": "Cc1cc(C#N)cc(C)c1Oc1nc(Nc2ccc(C#N)cc2)ncc1SCC(=O)NCCN1CCOCC1", "cells": "MT-4", "read by": "MTT", "changes": "L100I", "result": "0.0231 µM"}
{"compound": "Fc1ccc(C(F)(F)C(F)(F)c2nc3ccccc3o2)cc1", "cells": "CEM + CEM-SS", "read by": "RT activity", "strain or isolate": "LAI", "result": "88 µM"}
{"compound": "CC(C)C1=C2[C@H]3CC[C@@H]4[C@@]5(C)CC[C@H](OC(=O)[C@H]6C[C@@H](C(=O)O)C6(C)C)C(C)(C)[C@@H]5CC[C@@]4(C)[C@]3(C)CC[C@@]2(CCNC(=O)C(=O)c2ccc(Cl)cc2)CC1=O", "cells": "MT-2", "read by": "p24 / ELISA", "strain or isolate": "92HT599", "result": "<1 µM"}
{"compound": "CCc1c(Cc2cc(C)cc(C)c2)n(COCC#Cc2ccc(O[Si](c3ccccc3)(c3ccccc3)C(C)(C)C)cc2)c(=O)[nH]c1=O", "cells": "MT-4", "read by": "MTT", "strain or isolate": "IIIB", "changes": "Y181C", "result": "20 µM"}
{"compound": "Cc1cc(C#N)cc(C)c1Oc1nc(Nc2ccc(C#N)cc2)ncc1SCC(N)=O", "cells": "MT-4", "read by": "MTT", "strain or isolate": "IIIB", "result": "0.0114 µM"}
{"compound": "Cc1cccc(C)c1OCCOc1ccc(-c2cnc(C)c([C@H](OC(C)(C)C)C(=O)O)c2N2CCC(C)(C)CC2)nc1", "cells": "MT-2", "read by": "luminescence", "strain or isolate": "NL4-3", "result": "0.0047 µM"}
{"compound": "CCc1c(Cc2cc(C)cc(C)c2)n(COCC#Cc2ccc(O)cc2)c(=O)[nH]c1=O", "cells": "MT-4", "read by": "MTT", "strain or isolate": "IIIB", "changes": "EFV-resistant (K103R V179D P225H)", "result": "20 µM"}
{"compound": "Cc1cc(C#N)cc(C)c1Oc1nc(Nc2ccc(C#N)cc2)ncc1SCC(=O)NCCCN1CCOCC1", "cells": "MT-4", "read by": "MTT", "changes": "F227L V106A", "result": "0.1059 µM"}
{"compound": "Cc1cc(C)cc(S(=O)(=O)c2c(C(=O)NS(=O)(=O)c3ccccc3)[nH]c3ccc(Cl)cc23)c1", "cells": "MT-4", "read by": "MTT", "strain or isolate": "IIIB", "result": "1.31 µM"}
{"compound": "Cc1cn([C@H]2C[C@H](N=[N+]=[N-])[C@@H](CO)O2)c(=O)[nH]c1=O", "cells": "PBMC", "read by": "p24 / ELISA", "strain or isolate": "89.6", "result": "0.095 µM"}
{"compound": "CC(C)C1=C2[C@H]3CC[C@@H]4[C@@]5(C)CC[C@H](OC(=O)[C@H]6C[C@@H](C(=O)O)C6(C)C)C(C)(C)[C@@H]5CC[C@@]4(C)[C@]3(C)CC[C@@]2([C@@H](O)CNC(=O)C(C)(C)NC(=O)c2ccc(N)nc2)CC1=O", "cells": "MT-2", "read by": "p24 / ELISA", "strain or isolate": "92HT599", "result": "<1 µM"}
{"compound": "CCCS(=O)(=O)NC(=O)c1[nH]c2ccc(Cl)cc2c1S(=O)(=O)c1cc(C)cc(C)c1", "cells": "MT-4", "read by": "MTT", "changes": "F227L + V106A", "result": "3.53 µM"}
{"compound": "CC(C)C1=C2[C@H]3CC[C@@H]4[C@@]5(C)CC[C@H](OC(=O)[C@H]6C[C@@H](C(=O)O)C6(C)C)C(C)(C)[C@@H]5CC[C@@]4(C)[C@]3(C)CC[C@@]2([C@@H](O)CNCCN2CCCCC2)CC1=O", "cells": "MT-2", "read by": "p24 / ELISA", "strain or isolate": "92HT599", "result": "<1 µM"}
{"compound": "Nc1nc(Cl)c2ncn(CCO)c2n1", "cells": "MT-2", "read by": "RT activity", "strain or isolate": "LAV-1", "result": ">100 µM"}
{"compound": "C=CCn1cc(COCn2c(Cc3cc(C)cc(C)c3)c(CC)c(=O)[nH]c2=O)nn1", "cells": "MT-4", "read by": "MTT", "strain or isolate": "IIIB", "changes": "K103N + Y181C", "result": "21 µM"}
{"compound": "Cc1ncc(-c2ccc(OCCOc3ccncc3)cn2)c(N2CCC(C)(C)CC2)c1[C@H](OC(C)(C)C)C(=O)O", "cells": "MT-2", "read by": "luminescence", "strain or isolate": "NL4-3", "result": "0.0479 µM"}
{"compound": "O=c1cc(CCl)nc2c3ncn([C@@H]4O[C@H](COP(=O)(O)O)[C@@H](O)[C@H]4O)c3ncn12", "cells": "MT-4", "read by": "RT activity", "strain or isolate": "LAV-1", "result": ">200 µM"}